The target of the assay is Unchecked (UniProt O24855). The assay is described as follows: Inhibition of Helicobacter pylori beta-carbonic anhydrase preincubated for 15 mins by stopped flow CO2 hydration assay.

Chains of the proteins cited; added tags and fusions are not shown.
UniProt O24855, whole entry, entry inferred from the test as described: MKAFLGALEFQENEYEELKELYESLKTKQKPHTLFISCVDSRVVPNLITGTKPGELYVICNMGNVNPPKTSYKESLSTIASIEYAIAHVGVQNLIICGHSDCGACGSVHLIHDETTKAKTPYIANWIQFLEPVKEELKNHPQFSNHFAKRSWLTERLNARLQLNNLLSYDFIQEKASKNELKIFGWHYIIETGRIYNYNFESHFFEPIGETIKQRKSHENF

Ki data for one compound are collected here from ChEMBL document CHEMBL2331417, “Kinetic and anion inhibition studies of a β-carbonic anhydrase (FbiCA 1) from the C4 plant Flaveria bidentis” (Bioorg Med Chem Lett, 2013).

Regarding `O=[As](O)(O)c1ccccc1` [PHENYLARSONIC ACID], the Ki is 92 µM.
